Assays:
[1] = system: Huh-7 cells containing HCV Con1 subgenomic replicon (GS4.1 cells); assay: Cytotoxicity (CC50) reported with HCV replicon assay; conditions: CC50 method not described
[2] = target: HCV genotype 1b polymerase (strain J4) (Hepatitis C virus genotype 1b, UniProt O92972); assay: HCV polymerase assay; conditions: 50 nM HCV genotype 1b polymerase, BrUTP incorporation ELISA, 60 min at 35°
[3] = system: HCV Con1 subgenomic replicon in Huh-7 cells (GS4.1 cells); assay: HCV replicon assay (NS4A ELISA); conditions: 72 hr, NS4A protein ELISA

Chains of the proteins cited; added tags and fusions are not shown. Residues count along the entry.
UniProt O92972, 2420-3010 limits assumed: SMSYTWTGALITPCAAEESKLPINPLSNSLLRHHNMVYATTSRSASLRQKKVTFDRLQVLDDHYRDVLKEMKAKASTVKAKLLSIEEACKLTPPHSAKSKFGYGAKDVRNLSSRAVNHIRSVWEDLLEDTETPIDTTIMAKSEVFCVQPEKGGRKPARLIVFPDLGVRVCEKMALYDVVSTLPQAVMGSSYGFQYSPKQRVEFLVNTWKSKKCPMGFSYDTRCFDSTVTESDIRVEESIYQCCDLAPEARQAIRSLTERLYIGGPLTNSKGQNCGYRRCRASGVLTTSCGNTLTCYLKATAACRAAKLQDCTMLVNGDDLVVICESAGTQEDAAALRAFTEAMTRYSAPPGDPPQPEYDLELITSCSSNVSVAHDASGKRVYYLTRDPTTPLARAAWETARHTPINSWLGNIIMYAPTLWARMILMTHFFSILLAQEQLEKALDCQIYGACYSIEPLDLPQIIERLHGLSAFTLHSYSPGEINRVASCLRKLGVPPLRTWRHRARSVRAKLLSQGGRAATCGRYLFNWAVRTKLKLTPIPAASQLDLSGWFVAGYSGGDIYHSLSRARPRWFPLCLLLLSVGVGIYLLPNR

Compound	CC50 [1] [µM]	IC50 [2] [µM]	EC50 [3] [µM]
COP1(=O)N=C(c2c(O)n(C(C)(C)C)n(CCC(C)(C)C)c2=O)Nc2ccc(NS(C)(=O)=O)cc21 (stereo not drawn)	> 10	< 0.1	0.1 to 10
CC(C)(C)CCn1[nH]c(O)c(C2=NP(=O)(O)c3cc(NS(C)(=O)=O)ccc3N2)c1=O	> 10	0.1 to 10	> 10
CC(C)(C)CCn1c(=O)c(C2=NP(=O)(O)c3cc(NS(C)(=O)=O)ccc3N2)c(O)n1C(C)(C)C	> 10	< 0.1	0.1 to 10

— patent US20090060872A1, “PHOSPHADIAZINE HCV […]” (published 2009)
